{
  "source": "patent US20150218599A1",
  "about": "“METHODS FOR PRODUCTION OF ALCOHOLS FROM CARBOXYLIC ACIDS VIA FERMENTATION” (Cornell University, priority 2012, published 2015)",
  "test_system": "C. ragsdalei P11",
  "assay": "Carboxylic acid reduction in batch cultures with constant syngas supply",
  "type": "cell-based, Clostridium ragsdalei",
  "details": "15 mM carboxylic acid",
  "experimental": "All chemicals were purchased from Sigma-Aldrich, St. Louis, Mo., unless stated otherwise. Bacterial strain and growth conditions. Most experiments were conducted with C. ljungdahlii ERI-2 (ATTC 55380), which has been used successfully for syngas to ethanol fermentation. Some experiments were repeated with C. ragsdalei P11 (ATTC BAA-622). Bacteria were grown anaerobically at 35° C. in medium designed for efficient syngas fermentation. This medium is mostly based on ATCC medium 1754 but contains higher concentrations of the macronutrient elements. The yeast extract concentration was 0.5 g/L or 0.0 g/L as indicated for each experiment; the concentration of MES (2-(N-morpholino)ethanesulfonic acid) was 150 mM; carboxylic acids (propionic, n-butyric, isobutyric, n-valeric or n-caproic acid) were added to final concentrations of 15 mM before adjustment of the pH to 5.5. The syngas atmosphere was a synthetic blend of 60% [vol/vol]carbon monoxide, 35% hydrogen, and 5% carbon dioxide (Airgas East, Ithaca, N.Y.). Precultures of C. ljungdahlii or C. ragsdalei were grown in 250 ml serum bottles containing 20 ml medium with 0.5 g/L or 0.0 g/L yeast extract (the latter for inoculation of experiments with no yeast extract) and syngas in the headspace at a pressure of 28 psi with finite amounts of syngas. Precultures were maintained in an active state by weekly transfer of 2% into a fresh serum bottle with a headspace of finite syngas.\nExperimental setup. The experiments to determine the ability of C. ljungdahlii to reduce propionic acid, n-butyric acid, n-valeric acid, n-caproic acid, or isobutyric acid (2-methyl propionic acid) to the corresponding alcohols were performed in triplicate in 250 ml rubber-stoppered Pyrex glass bottles (Fisher Scientific, Pittsburgh, Pa.), which were used as batch systems in regards to the growth medium, but with constant syngas supply (FIG. 1A). Three stainless steel needles of different length (21 gauge, Becton Dickinson Franklin Lakes, N.J., and ColeParmer, Vernon Hills, Ill.) were punched through each rubber stopper as gas supply, vent, and sample ports. The reactors were filled with 220 mL medium containing 0.5 g/L yeast extract and one of each carboxylic acids at a concentration of 15 mM, autoclaved, and then equipped with fermentation airlocks (www.winemakingsuperstore.com) filled with 5% sulfuric acid to prevent contamination by other microbes or oxygen, and placed in a temperature-controlled recirculating water bath for mechanical agitation using a 15 multi-position IKA magnetic stirrer (Cole-Parmer Vernon Hills, Ill. 60061 USA). […]\nAnalytical procedures. Cell dry weight concentration in the cultures was determined through measurement of the optical density with a Milton Roy Spectronic 1201 spectrophotometer at a wavelength of 600 nm after determining a correlation coefficient of 242 mg dry weight/(L*OD600nm). The carbon content was calculated using the universal proportion of elements in microbial biomass (C5H7O2N). A gas chromatography system (HP 5890, Hewlett Packard, Palo Alto, Calif.), which was equipped with a 7673 autoinjector and flame ionization detector, was used for the quantification of carboxylic acids and alcohols. […]",
  "note": "Values joined by “and” are separate entries in the source; they are usually repeats but may differ in a detail not shown here. Equal entries are not always repeated.",
  "data": [
    {"smiles": "CCC(=O)O", "note": "[propionic acid]", "values": [
      {"measurement": "alcohol from carboxylic acid produced at end of experiment", "value": "7.51 mM and 7.51 ± 2.01 mM"},
      {"measurement": "consumed carboxylic acid", "value": "10.39 ± 2.05", "unit": "mM"},
      {"measurement": "final acetic acid produced at end of experiment", "value": "39.43 ± 8.39", "unit": "mM"},
      {"measurement": "final ethanol produced at end of experiment", "value": "48.08 ± 24.17", "unit": "mM"},
      {"measurement": "final pH", "setting": "start pH 5.5", "value": "5.23 ± 0.15"}
    ]}
  ]
}
